# Sequence variants of PSTVd loop 15 after infection

PSTVd intermediate strain, loop 15: wild type GGAAACCGCUACUAC, pool pattern GGAAACCGNNNNNNC; upper and lower strand joined, each 5' to 3', the first 7 letters being the upper strand, closing pairs included.

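Three N. benthamiana plants were inoculated with the whole mutant pool. Samples came from the inoculated region at 5 days, the leaf margin at 10 and upper systemic leaves at 12.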

Values are reads per thousand in the sample; higher means more abundant, 0 means not found. Each value is the mean of three plants. "Pool" is the share in the plasmid pool used as inoculum, on the same scale. The inoculated region was read from the minus strand, the other sites from the plus strand. IR is the inoculated region, LM the leaf margin, Sys the systemic leaves.

With GGAAACCGCUUUAUC (pool 0.256) the assay gave IR 0.255; LM 0.0134; Sys 0. With GGAAACCGAAUUCGC (pool 0.240) the assay gave IR 0.0812; LM 0.0134; Sys 0. GGAAACCGGGUGGGC (pool 0.208) gave IR 0.0668; LM 0.0175; Sys 0.0183. With GGAAACCGCCUCGAC (pool 0.192) the assay gave IR 0.126; LM 0.00742; Sys 0.00537. For GGAAACCGGUCUGUC (pool 0.144) the result was IR 0.0931; LM 0.0121; Sys 0. GGAAACCGGCCAUGC (pool 0.192) read IR 0.134; LM 0.00742; Sys 0.00537. GGAAACCGCCAUACC (pool 0.128) read IR 0.108; LM 0.0208; Sys 0.0130.

GGAAACCGCUUUCUC (pool 0.208) gave IR 0.150; LM 0.0134; Sys 0.00537. For GGAAACCGGUAAUUC (pool 0.224) the result was IR 0.381; LM 0.153; Sys 0.0543. With GGAAACCGGAAGGUC (pool 0.160) the assay gave IR 0.0678; LM 0.00539; Sys 0. For GGAAACCGAGGGCCC (pool 0.176) the result was IR 0.120; LM 0.00539; Sys 0. With GGAAACCGUAUCUAC (pool 0.176) the assay gave IR 0.319; LM 0.126; Sys 0.0161. With GGAAACCGGUAGUAC (pool 0.336) the assay gave IR 0.376; LM 0.125; Sys 0.0107. With GGAAACCGAGAGCGC (pool 0.176) the assay gave IR 0.344; LM 0.0328; Sys 0.00537.

GGAAACCGGGAGGGC (pool 0.192) read IR 0.0752; LM 0.0108; Sys 0. GGAAACCGAACAAUC (pool 0.256) read IR 0.242; LM 0; Sys 0. With GGAAACCGUAACUGC (pool 0.240) the assay gave IR 0.531; LM 0.116; Sys 0.104. With GGAAACCGUACGUUC (pool 0.128) the assay gave IR 0.289; LM 0.111; Sys 0.0767. GGAAACCGCAGGCGC (pool 0.304) read IR 0.104; LM 0.0148; Sys 0. GGAAACCGGCGCAGC (pool 0.144) read IR 0.0805; LM 0; Sys 0. GGAAACCGAUUUAAC (pool 0.304) read IR 0.0866; LM 0.0121; Sys 0.

GGAAACCGUAAUGGC (pool 0.400) gave IR 0.106; LM 0.0328; Sys 0. GGAAACCGUCGGUUC (pool 0.320) gave IR 0.315; LM 0.114; Sys 0.0914. GGAAACCGGUCAUCC (pool 0.240) read IR 0.120; LM 0; Sys 0. GGAAACCGAUGGGAC (pool 0.240) read IR 0.0891; LM 0.0141; Sys 0.00760. GGAAACCGAGACAGC (pool 0.208) read IR 0.216; LM 0.0303; Sys 0.00537. GGAAACCGAUCUUGC (pool 0.320) read IR 0.140; LM 0.00668; Sys 0.00537. For GGAAACCGUCGCGAC (pool 0.192) the result was IR 0.102; LM 0.00668; Sys 0.

GGAAACCGGCACGGC (pool 0.208) read IR 0.0766; LM 0.0141; Sys 0. With GGAAACCGAGCAAGC (pool 0.208) the assay gave IR 0.0805; LM 0.00539; Sys 0. GGAAACCGUAAUUGC (pool 0.176) gave IR 0.344; LM 0.0867; Sys 0.0610. GGAAACCGGGCCCAC (pool 0.208) read IR 0.119; LM 0; Sys 0. GGAAACCGUUGCAGC (pool 0.176) gave IR 0.116; LM 0.00742; Sys 0. For GGAAACCGCCACGGC (pool 0.176) the result was IR 0.0978; LM 0.00742; Sys 0. GGAAACCGCUUUUGC (pool 0.320) read IR 0.114; LM 0.00668; Sys 0.

GGAAACCGCUUAGUC (pool 0.160) gave IR 0.0884; LM 0.0187; Sys 0.

2 of these entries, quoted again:

{"sequence": "GGAAACCGGCACGGC", "pool": "0.208", "IR": 0.0766, "LM": 0.0141, "Sys": 0}
{"sequence": "GGAAACCGGGCCCAC", "pool": "0.208", "IR": 0.119, "LM": 0, "Sys": 0}

With 43,870-66,106 reads a sample, very low values are single reads. The authors trace changes outside the varied positions to PCR and sequencing errors or to mutation in the plant; presence does not show that a variant is infectious alone. Wild type was 33.9 per thousand in the pool and the most common sequence in every sample (inoculated region 202, 200, 159; leaf margin 724, 746, 710; systemic leaves 856, 883, 880).

From the data files of Wu et al. 2024, doi:10.1371/journal.ppat.1012142.